Source: PubChem BioAssay AID540336 (Broad Institute, 2011)
The entries are a selection whose mix differs from that of the whole data set. Some structures show a salt or complex split into parts, the way the source records it. Activity calls are given as the source filed them.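 Rule for the calls: active = inhibition of at least 50% in every replicate; inconclusive = best replicate reaches 50% inhibition but some replicates fall short; inactive = the rest.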

Sequences of proteins named here, by UniProt entry; tags and fusion partners are left off.
UniProt Q5AAJ8, whole entry: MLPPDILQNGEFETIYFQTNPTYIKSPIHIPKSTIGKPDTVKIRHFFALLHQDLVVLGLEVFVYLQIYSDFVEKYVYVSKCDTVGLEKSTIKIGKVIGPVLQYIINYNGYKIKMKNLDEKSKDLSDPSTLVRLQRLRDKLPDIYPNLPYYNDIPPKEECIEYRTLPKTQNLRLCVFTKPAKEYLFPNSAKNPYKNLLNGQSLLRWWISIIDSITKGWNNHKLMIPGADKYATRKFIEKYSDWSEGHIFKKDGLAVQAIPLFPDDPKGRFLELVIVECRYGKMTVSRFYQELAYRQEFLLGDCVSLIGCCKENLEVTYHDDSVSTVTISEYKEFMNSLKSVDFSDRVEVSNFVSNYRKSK

What follows are compounds tested against Histone acetyltransferase RTT109 (Candida albicans (strain SC5314 / ATCC MYA-2876)) (UniProt Q5AAJ8) (assay: Rtt109-Vps75 histone acetyltransferase blockade – biochemical, ThioGlo CoA-SH fluorescence, plate reader, primary screen (AID 540336)). Details: purified Rtt109/Vps75, ThioGlo CoA-SH fluorescence, 4 h; at 34.9 µM; hits give high values.

Row | Structure (SMILES) | inhibition
1 | COc1ccccc1OP(C)(=O)Nc1ccccc1 (centres undefined) | inactive: 11.6%
2 | CP(=O)(Nc1ccccc1Br)Oc1ccccc1 (centres undefined) | inactive: -8.36%
3 | CP(=S)(Nn1cnnc1)Oc1ccccc1 (centres undefined) | inactive: -4.19%
4 | CCc1ccc(OP(C)(=O)N2CCN(c3ccc([N+](=O)[O-])cc3)CC2)cc1 (centres undefined) | inactive: -2.69%
5 | CP(=O)(NC(=O)Nc1ccccc1)Oc1ccccc1 (centres undefined) | inactive: -9.36%
6 | Cc1cc(C)cc(OP(C)(=O)Nc2ccc(SC(F)(F)F)cc2)c1 (centres undefined) | inactive: 18.8%
7 | Cc1cccc(C)c1OP(C)(=O)Nc1ccc(SC(F)(F)F)cc1 (centres undefined) | inactive: -9.18%
8 | CP(=O)(Oc1ccccc1)OC(c1ccccc1)C(F)(F)F (centres undefined) | inactive: -6.93%
9 | CP(=O)(Nc1ccccn1)Oc1ccc(Cl)cc1 (centres undefined) | inactive: -4.07%
10 | CCOP(C)(=S)SCC(=O)NC(C)C(=O)O (centres undefined) | inactive: -5.2%
11 | CCOC(=O)c1ccc(NP(C)(=O)Oc2ccc(OC)cc2)cc1 (centres undefined) | inactive: 4.77%
12 | CCN(CC)CCCOC(=O)C(O)(c1ccccc1)c1ccccc1 | inactive: -5.5%
13 | CC(C)(C)c1ccc(OP(C)(=O)Nc2ccc(SC(F)(F)F)cc2)cc1 (centres undefined) | inactive: -2.45%
14 | Cc1cccc(C)c1OP(C)(N)=O (centres undefined) | inactive: 2.35%
15 | O=[N+]([O-])c1ccc2c(c1)C=Nc1ccccc1O2 | inactive: -1.19%
16 | O=[N+]([O-])c1cc([N+](=O)[O-])c(Nc2cccnc2)c([N+](=O)[O-])c1 | inactive: -0.689%
17 | COc1ccccc1OP(C)(=O)Nc1cc(Cl)ccc1C (centres undefined) | inactive: 2.04%
18 | COc1ccc(OP(C)(=O)Nc2cccc(F)c2)cc1 (centres undefined) | inactive: -0.739%
19 | Cc1cc(C)cc(OP(C)(N)=O)c1 (centres undefined) | inactive: -1.82%
20 | CCOC(=O)c1ccc(NP(C)(=O)Oc2ccccc2)cc1 (centres undefined) | inactive: -1.59%
21 | COc1ccccc1OP(C)(=O)Nc1ccc(C)cc1 (centres undefined) | inactive: 4.29%
22 | Cc1ccc(NP(C)(=O)Oc2ccccc2)c(C)c1 (centres undefined) | inactive: -2.09%
23 | O=C(O)c1cccc(Nc2c([N+](=O)[O-])cc([N+](=O)[O-])cc2[N+](=O)[O-])c1 | inactive: 16.3%
24 | CC1=NCCc2c1[nH]c1ccccc21.O=[N+]([O-])c1cc([N+](=O)[O-])c(O)c([N+](=O)[O-])c1 | inactive: -5.29%
25 | CCOC(=O)c1ccc(NP(C)(=O)Oc2cc(C)cc(C)c2)cc1 (centres undefined) | inactive: -5.9%
26 | COc1ccccc1OP(C)(=O)Nc1cccc(Br)c1 (centres undefined) | inactive: -2.03%
27 | CP(=O)(Nc1cccc(Br)c1)Oc1ccccc1 (centres undefined) | inactive: -6.9%

Row | Structure (SMILES) | inhibition
28 | Cc1cc(C)cc(OP(C)(=O)Nc2ccccn2)c1 (centres undefined) | inactive: -0.036%
29 | Cc1ccc(C)c(NP(C)(=O)Oc2ccccc2)c1 (centres undefined) | inactive: 18.5%
30 | O=[N+]([O-])c1cc([N+](=O)[O-])c(-n2nnc3ccccc32)c([N+](=O)[O-])c1 | inactive: 4.49%
31 | Cc1nc2ccc3ccccc3c2s1.O=[N+]([O-])c1cc([N+](=O)[O-])c(O)c([N+](=O)[O-])c1 | inactive: 15.3%
32 | O=[N+]([O-])c1cc([N+](=O)[O-])c(-c2cnn(-c3ccccc3)c2)c([N+](=O)[O-])c1 | inactive: -2.11%
33 | O=[N+]([O-])c1cc([N+](=O)[O-])c(Nc2nnnn2CCO)c([N+](=O)[O-])c1 | inactive: -2.65%
34 | CC1=C2N=C(C=C3N=C(C(C)=C4[N-][C@@](C)([C@@H]5N=C1[C@](C)(CCC(=O)NC[C@@H](C)OP(=O)([O-])O[C@H]1[C@@H](O)[C@@H](n6cnc7cc(C)c(C)cc76)O[C@@H]1CO)[C@H]5CC(N)=O)[C@@](C)(CC(N)=O)[C@@H]4CCC(N)=O)[C@@](C)(CC(N)=O)[C@@H]3CCC(N)=O)C(C)(C)[C@@H]2CCC(N)=O.[C-]#N.[Co+3] | inactive: 5.39%
35 | CCOC(=O)C(CC)C1=NC(C)(C)Cc2ccccc21.O=[N+]([O-])c1cc([N+](=O)[O-])c(O)c([N+](=O)[O-])c1 (centres undefined) | inactive: -14.7%
36 | CP(=O)(Nc1ccc(SC(F)(F)F)cc1)Oc1ccccc1 (centres undefined) | inactive: 11%
37 | CCCOc1ccc(NP(C)(=O)Oc2ccc(Cl)cc2)cc1 (centres undefined) | inactive: 8.25%
38 | COc1ccccc1OP(C)(=O)Nc1c(C)cccc1C (centres undefined) | inactive: 4.36%
39 | CN1CCCCC1COC(=O)C1(O)c2ccccc2CCc2ccccc21 (centres undefined) | inactive: 13.6%
40 | COc1ccc(NP(C)(=O)Oc2ccccc2OC)cc1 (centres undefined) | inactive: 2.68%
41 | CN(C)CCOC(=O)C(O)(c1ccccc1)C1CCCCC1 (centres undefined) | inactive: -3.56%
42 | COc1ccc(OP(C)(=O)Nc2cccc(Br)c2)cc1 (centres undefined) | inactive: 2.31%
43 | Cc1c(C(c2ccc3c(c2)OCO3)c2c(C)n(C)n(-c3ccccc3)c2=O)c(=O)n(-c2ccccc2)n1C.O=[N+]([O-])c1cc([N+](=O)[O-])c(O)c([N+](=O)[O-])c1 | inactive: -3.61%
44 | O=[N+]([O-])c1cc([N+](=O)[O-])c(NCC2CCS(=O)(=O)C2)c([N+](=O)[O-])c1 (centres undefined) | inactive: 3.43%
45 | Cc1cc(-c2cccc3ccccc23)c(C)cn1.O=[N+]([O-])c1cc([N+](=O)[O-])c(O)c([N+](=O)[O-])c1 | inactive: 13.6%
46 | O=[N+]([O-])c1ccc(OP2(=O)COCCO2)cc1 (centres undefined) | inactive: -1.36%
47 | CCOP(C)(=S)SCC(=O)NC(C)(CC)C(=O)O (centres undefined) | inactive: -12.6%
48 | CP(=O)(Nc1ccc(SC(F)(F)F)cc1)Oc1ccc(F)cc1 (centres undefined) | inactive: 6.29%
49 | Cc1ccccc1NP(C)(=O)Nc1ccccc1C | inactive: -4.81%
50 | CP(=O)(Nc1ccc2c(c1)OCCO2)Oc1ccccc1 (centres undefined) | inactive: -2.1%
51 | CC(C)c1ccc(OP(C)(=O)Nc2ccc(SC(F)(F)F)cc2)cc1 (centres undefined) | inactive: 8.11%
52 | CP(=O)(Nc1ccccc1F)Oc1ccccc1 (centres undefined) | inactive: 1.73%
53 | COc1ccc2c(c1O)-c1c(O)c(OC)cc3c1[C@H](C2)[N+](C)(C)CC3.O=[N+]([O-])c1cc([N+](=O)[O-])c([O-])c([N+](=O)[O-])c1[O-] | inactive: 4.42%
54 | O=C(OCCN1CCN(CCOCc2ccccc2)CC1)C(O)(c1ccccc1)c1ccccc1 | inactive: 5.97%
